Results of unrelated studies side by side (data: NIAID ChemDB).

Shared fields: cytotoxicity tests; cell line: CEM; endpoint: CC50

CCn: concentration that lowers growth or viability of the cells by n%.

{"smiles": "Cc1occc1C(=S)Nc1ccc(Cl)c(/C=N/OCc2ccccc2)c1", "value": ">7.1 µM"}
{"smiles": "Cc1cn([C@H]2C[C@H](N=[N+]=[N-])[C@@H](COP(=O)(Nc3cc(C(=O)Nc4cc(C(=O)Nc5cc(C(=O)Nc6cc(C(=O)NCCC(=N)N)n(C)c6)n(C)c5)n(C)c4)n(C)c3)OC3CCCCC3)O2)c(=O)[nH]c1=O", "method": "MTT", "value": ">200 µM"}
{"smiles": "Cc1cn([C@H]2CC[C@@H](CO)S2)c(=O)[nH]c1=O", "value": ">150 µg/mL"}
{"smiles": "O=C(NCCCCNC(=O)c1cc2cc(O)c(O)cc2[nH]1)c1cc2cc(O)c(O)cc2[nH]1", "method": "XTT", "value": "26 µM"}
{"smiles": "CCCCCCCCCN1C=Cc2nccc3cc(OC)c(OC)c1c23", "value": "1.2 µM"}
{"smiles": "CC(C)CCN(C[C@@H](O)[C@H](Cc1ccccc1)NC(=O)[C@H](C)CS(C)(=O)=O)S(=O)(=O)c1ccc(N)cc1", "value": "170 µM"}
{"smiles": "COc1cc(C[C@@H]2COC(=O)[C@@]2(O)Cc2ccc(O)c(OC)c2)ccc1O", "value": "4.02–5.74 µM"}
{"smiles": "CC(C)CCC[C@@H](C)[C@H]1CC[C@H]2[C@@H]3CC[C@H]4C[C@@H](CC=C(c5cc(Cl)c(O)c(C(=O)O)c5)c5cc(Cl)c(O)c(C(=O)O)c5)CC[C@]4(C)[C@H]3CC[C@]12C", "value": ">320 µM"}
{"smiles": "COc1ccc2nc(Cl)c(/C=C/C(=O)c3ccc[nH]3)cc2c1", "method": "MTS", "value": "4.7 µM"}
{"smiles": "CC#C[C@@]1(CO)C=C[C@H](n2cc(C)c(=O)[nH]c2=O)O1", "method": "cell count", "value": ">100 µM"}
{"smiles": "CC1=C(C(=O)Nc2cc(C(=O)OC(C)C)c(Cl)cc2F)SCCO1", "value": ">100 µg/mL"}
{"smiles": "O=c1[nH]c(=O)n(C2C[C@H](CO)[C@@H](CO)C2)cc1I", "value": ">200 µg/mL"}
{"smiles": "CCC1=C(C(=O)Nc2ccc(Cl)c(C(=O)OCC(C)C)c2)SCCO1", "value": "24 µg/mL"}
{"smiles": "COc1cc2ccnc3c2c(c1OCCCCCCCCCOc1c(OC)cc2ccnc4c2c1N(C)C=C4)N(C)C=C3", "value": "<1 µM"}
{"smiles": "CCCCCCCCCC=C(c1cc(Br)cc(C(=O)O)c1OC)c1cc(Br)cc(C(=O)O)c1OC", "value": "68.3 µM"}
{"smiles": "O=C(NCCc1ccc(O)c(O)c1)c1cc2cc(O)c(O)cc2[nH]1", "method": "XTT", "value": "10 µM"}
{"smiles": "OC[C@H]1CC(n2cnc3c(NC4CC4)ncnc32)C[C@@H]1CO", "value": ">200 µg/mL"}
{"smiles": "O=C(c1ccccc1SSc1ccccc1C(=O)N1CCOCC1)N1CCOCC1", "value": "50 µM"}
{"smiles": "CCCOC(=O)c1cc(NC(=O)C2=C(C)OCCS2)ccc1Cl", "value": ">100 µg/mL"}
{"smiles": "Cc1cn([C@H]2C[C@H](N=C(N)NC#N)[C@@H](CO)O2)c(=O)[nH]c1=O", "value": ">100 µM"}
{"smiles": "Cc1ccn2c(C3SCCS3)cnc2c1", "value": "11 µM"}
{"smiles": "Cc1cc(C)nc(N2C(=O)CSC2c2c(C(F)(F)F)ccc(Cl)c2F)c1", "value": "130 µM"}
{"smiles": "Cc1ccn2c(C(SCCc3ccccc3)SCCc3ccccc3)cnc2c1", "value": "7.8 µM"}
{"smiles": "Cc1cn([C@@H]2O[C@H](CO[Si](C)(C)C(C)(C)C)C3(OS(=O)(=O)C=C3N)[C@H]2O[Si](C)(C)C(C)(C)C)c(=O)n(CCCCCCO/C(=C/C(=O)c2ccccc2)c2ccccc2)c1=O", "value": ">100 µM"}
{"smiles": "Cc1occc1C(=S)Nc1ccc(Cl)c(/C=N/OCC(=O)OC(C)(C)C)c1", "value": ">24 µM"}
{"smiles": "COc1cc(OC)c2c(=O)cc(-c3ccc(OCCCN)c(NC(=O)CCCN(C)C)c3)n(C)c2c1", "method": "MTT", "value": ">100 µM"}
{"smiles": "CNc1ccc(C)cc1S(=O)(=O)c1ccccc1[N+](=O)[O-]", "value": "43.5 µM"}
{"smiles": "Nc1ccc(CSCC2(CSCc3ccc(N)cc3)NC(=O)NC2=O)cc1", "value": ">100 µM"}
{"smiles": "Cc1cc(S(=O)(=O)Nc2nnc3c(C(F)(F)F)cc(Cl)cn23)c(S)cc1Cl", "value": "139 µM"}
{"smiles": "COc1ccc2nc(Cl)c(/C=C/C(=O)c3ccc(Cl)s3)cc2c1", "method": "MTS", "value": "31.6 µM"}
{"smiles": "CC(=O)/C=C(\\C)OCCCCCCCCn1c(=O)c(C)cn([C@@H]2O[C@H](CO[Si](C)(C)C(C)(C)C)C3(OS(=O)(=O)C=C3N)[C@H]2O[Si](C)(C)C(C)(C)C)c1=O", "value": "49 µM"}
{"smiles": "COc1cc(OC)c2c(=O)cc(-c3ccc(OCCCN4CCCCC4)c(N)c3)n(C)c2c1", "method": "MTT", "value": ">100 µM"}
{"smiles": "CCCCN(C[C@@H](O)[C@H](Cc1ccccc1)NC(=O)[C@H](C)CS(C)(=O)=O)S(=O)(=O)c1ccccc1", "value": "133 µM"}
{"smiles": "Cc1cn([C@H]2C[C@H](NCC#N)[C@@H](CO)O2)c(=O)[nH]c1=O", "value": "7 µM"}
{"smiles": "Cc1cn([C@H]2C=C[C@@H](COP(=O)(Nc3cc(C(=O)Nc4cc(C(=O)Nc5cc(C(=O)NCCC(=N)N)n(C)c5)n(C)c4)n(C)c3)OC(C)C)O2)c(=O)[nH]c1=O", "method": "MTT", "value": "133 µM"}
{"smiles": "COc1ccc(OC)c(NC(=O)c2ccccc2SSc2ccccc2C(=O)Nc2cc(OC)ccc2OC)c1", "value": "53 µM"}
{"smiles": "CCCC[n+]1ccc2cc(OC)c(OC)c3c2c1C=CN3", "value": "5.7 µM"}
{"smiles": "CC(=O)C(CCCCCCn1c(=O)c(C)cn([C@@H]2O[C@H](CO[Si](C)(C)C(C)(C)C)C3(OS(=O)(=O)C=C3N)[C@H]2O[Si](C)(C)C(C)(C)C)c1=O)C(C)=O", "value": "160 µM"}
{"smiles": "O=C1NC(=O)C(CSCCO)(CSCc2ccccc2)N1", "value": ">34 µM"}
{"smiles": "Cc1ccn2c(C3OCCO3)cnc2c1", "value": ">100 µM"}
{"smiles": "O=C(NCCCNC(=O)c1cc2cc(O)c(O)cc2[nH]1)c1cc2cc(O)c(O)cc2[nH]1", "method": "XTT", "value": "3.6 µM"}
{"smiles": "Cc1cn([C@H]2C[C@H](NC(N)=O)[C@@H](CO)O2)c(=O)[nH]c1=O", "value": "7 µM"}
{"smiles": "Cc1ccc2nc(Cl)c(/C=C/C(=O)c3cc4ccccc4o3)cc2c1", "method": "MTS", "value": "5.5 µM"}
{"smiles": "Cc1cn([C@H]2C[C@H](N=[N+]=[N-])[C@@H](COP(=O)(Nc3cc(C(=O)Nc4cc(C(=O)Nc5cc(C(=O)NCCC(=N)N)n(C)c5)n(C)c4)n(C)c3)OC(C)C)O2)c(=O)[nH]c1=O", "method": "MTT", "value": "89 µM"}
{"smiles": "Cc1ccnc(N2C(=O)CSC2c2c(F)ccc(C)c2Cl)n1", "value": "158.5 µM"}
{"smiles": "CCCCCCCCCCCCNC(=O)c1ccccc1SSc1ccccc1C(=O)NCCCCCCCCCCCC", "value": "20 µM"}
{"smiles": "[C-]#[N+][C@H]1C[C@H](n2cc(C)c(=O)[nH]c2=O)O[C@@H]1CO", "value": "8 µM"}
{"smiles": "COc1cccc(F)c1C1SCC(=O)N1c1cccc(C)n1", "value": "162 µM"}
{"smiles": "C=CCO/N=C/c1cc(NC(=S)c2ccoc2C)ccc1Cl", "value": ">16 µM"}
{"smiles": "COc1cc(OC)c2c(=O)cc(-c3ccc(OCCCN4CCN(C)CC4)c(NC(=O)CCCN(C)C)c3)n(C)c2c1", "method": "MTT", "value": ">100 µM"}
{"smiles": "Cc1ccn2c(C3OCCS3)cnc2c1", "value": "28 µM"}
{"smiles": "CC1=C(C(=O)Nc2cccc(C(=O)OC(C)C)c2)SCCO1", "value": "24 µg/mL"}
{"smiles": "Cc1cc(S(=O)(=O)Nc2nnc3c(Cl)cc(C(F)(F)F)cn23)c(S)cc1Cl", "value": ">200 µM"}
{"smiles": "C[C@H](CCC=C(c1cc(Cl)c(O)c(C(=O)O)c1)c1cc(Cl)c(O)c(C(=O)O)c1)[C@H]1CC[C@H]2[C@@H]3CC[C@@H]4CC(F)(F)CC[C@]4(C)[C@H]3CC[C@]12C", "value": ">41 µM"}
{"smiles": "COc1cc2cc[n+](CCC(C)C)c3c2c(c1OC)NC=C3", "value": "10.9 µM"}
{"smiles": "CCCCCCCCCCCCCCCCCCCCCCCCCCCCCC=C(c1cc(Cl)c(O)c(C(=O)O)c1)c1cc(Cl)c(O)c(C(=O)O)c1", "value": ">220 µM"}
{"smiles": "O=C(NCCCCCCNC(=O)c1cc2cc3c(cc2[nH]1)OCO3)c1cc2cc3c(cc2[nH]1)OCO3", "method": "XTT", "value": ">200 µM"}
{"smiles": "CC1=C(C(=O)Nc2ccc(Cl)c(C(=O)OC3CCCC3)c2)SCCO1", "value": "6.4 µg/mL"}
{"smiles": "O=C1NC(=O)C(CSCc2cccc3ccccc23)(CSCc2cccc3ccccc23)N1", "value": ">100 µM"}
{"smiles": "C=CC[C@H](NC(=O)[C@H](Cc1ccccc1)NS(=O)(=O)N1CCOCC1)C(=O)N[C@@H](CC1CCCCC1)[C@@H](O)C[C@H](C(=O)NCCCC)C(C)C", "value": ">13 µM"}
{"smiles": "COc1ccc2nc(Cl)c(/C=C/C(=O)c3sccc3C)cc2c1", "method": "MTS", "value": "10.6 µM"}
{"smiles": "CCCCCCCCC[n+]1ccc2cc(OC)c(OC)c3c2c1C=CN3", "value": "<1 µM"}
{"smiles": "COc1cccc(F)c1C1SCC(=O)N1c1cc(C)cc(C)n1", "value": "209 µM"}
{"smiles": "COc1ccc2nc(Cl)c(/C=C/C(=O)c3sccc3Cl)cc2c1", "method": "MTS", "value": "2.3 µM"}
{"smiles": "O=C(NCCCCCCNC(=O)c1cc2cc(O)c(O)cc2[nH]1)c1cc2cc(O)c(O)cc2[nH]1", "method": "XTT", "value": "26 µM"}
{"smiles": "COP(=O)(OC)OP(=O)(OC)OP(=O)(OC)OC[C@H]1O[C@@H](n2cc(F)c3c(N)ncnc32)[C@](C)(F)[C@@H]1O", "value": ">10 µM"}
{"smiles": "CC(C)CN(C[C@@H](O)[C@H](Cc1ccccc1)NC(=O)[C@H](C)CS(C)(=O)=O)S(=O)(=O)c1ccccc1", "value": "213 µM"}
{"smiles": "Nc1ccn([C@H]2CC[C@@H](CO)S2)c(=O)n1", "value": ">100 µg/mL"}
{"smiles": "CC(=O)COc1cc(NC(=S)OC(C)C)ccc1Cl", "value": "77 µM"}
{"smiles": "COc1cc(OC)c2c(=O)cc(-c3ccc(O)c(N)c3)n(C)c2c1", "method": "MTT", "value": ">100 µM"}
{"smiles": "O=C1NC(=O)C(CSCc2ccc(C(=O)O)cc2)(CSCc2ccc(C(=O)O)cc2)N1", "value": ">100 µM"}
{"smiles": "COCC1=C(C(=O)Nc2ccc(Cl)c(C(=O)OC(C)C)c2)SCCO1", "value": "45 µg/mL"}
{"smiles": "Cc1ccc2nc(Cl)c(/C=C/C(=O)c3ccc4ccccc4c3)cc2c1", "method": "MTS", "value": "22.6 µM"}
{"smiles": "Nc1nc(Cl)nc2c1ncn2[C@H]1CC[C@@H](CO)S1", "value": ">100 µg/mL"}
{"smiles": "CCCCCCCCCC=C(c1cc(Br)c(O)c(C(=O)O)c1)c1cc(Br)c(O)c(C(=O)O)c1", "value": ">191 µM"}
{"smiles": "O=C(Nc1ncccn1)c1ccccc1SSc1ccccc1C(=O)Nc1ncccn1", "value": "6.2 µM"}
{"smiles": "Cc1ccc2nc(Cl)c(/C=C/C(=O)c3cccc4ccccc34)cc2c1", "method": "MTS", "value": "16.7 µM"}
{"smiles": "O=c1[nH]cnc2c1ncn2C1C[C@H](CO)[C@@H](CO)C1", "value": ">200 µg/mL"}
{"smiles": "Cc1cn([C@H]2C[C@H](N=[N+]=[N-])[C@@H](COP(=O)(Nc3cc(C(=O)Nc4cc(C(=O)Nc5cc(C(=O)NCCC(=N)N)n(C)c5)n(C)c4)n(C)c3)OC3CCCCC3)O2)c(=O)[nH]c1=O", "method": "MTT", "value": "156 µM"}
{"smiles": "O=C(c1cc2cc3c(cc2[nH]1)OCO3)N1CCN(C(=O)c2cc3cc4c(cc3[nH]2)OCO4)CC1", "method": "XTT", "value": ">200 µM"}
{"smiles": "CC(=O)C(CCCCCCCn1c(=O)c(C)cn([C@@H]2O[C@H](CO[Si](C)(C)C(C)(C)C)C3(OS(=O)(=O)C=C3N)[C@H]2O[Si](C)(C)C(C)(C)C)c1=O)C(C)=O", "value": ">250 µM"}
{"smiles": "O=C(NNC(=O)c1ccccc1SSc1ccccc1C(=O)NNC(=O)c1ccncc1)c1ccncc1", "value": "67 µM"}
{"smiles": "CC/C=C\\C/C=C\\C/C=C\\CCCCCCCC(=O)OC[C@@H](CO[C@H]1O[C@H](CS(=O)(=O)O)[C@@H](O)[C@H](O)[C@H]1O)OC(=O)CCCCCCCCCCCCCCC", "value": ">300 µg/mL"}
{"smiles": "CCCN(C[C@@H](O)[C@H](Cc1ccccc1)NC(=O)[C@H](C)CS(C)(=O)=O)S(=O)(=O)c1ccc(OC)cc1", "value": ">1000 µM"}

Rows are shuffled and stem from different studies. Two numbers with a dash give a range or band.